Source: PubChem BioAssay AID624099 (ICCB-Longwood, 2012)

Assay: 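Knock-downs relieving repression by E2 of an HPV18 LCR luciferase reporter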 (primary screen)
Cell system: human C33A cervical carcinoma cells (HPV-negative) stably expressing BPV1 E2 and an HPV18 LCR luciferase reporter
Knock-down reagent: siRNA pool against human genes, 40 nM
Duration: 72 h
Read-out: 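HPV18 LCR reporter light per well, converted to plate-wise z-scores that exclude control wells, and averaged over triplicate plates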
Reading the numbers: mean z-score and z-score: higher = stronger reporter signal, weaker E2 silencing
Active means: 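Mean z ≥ 2 together with z ≥ 2 in two or more of the three replicates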
The deposit covers about 21,000 reagents; shown is a part drawn at random. In the full data, 497 (2.4%) got an active call. 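Higher z means weaker E2 silencing; only reporter increases were scored, and knock-downs that hurt cell survival may mask genuine repressor factors.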 Entries without a mark were called inactive.

OXCT1 (3-oxoacid CoA-transferase 1): mean z-score = 0.43; z-score, replicate A = 0.51; z-score, replicate B = 0.34; z-score, replicate C = 0.43
LSMEM1 (leucine rich single-pass membrane protein 1): mean z-score = -0.16; z-score, replicate A = -0.18; z-score, replicate B = -0.34; z-score, replicate C = 0.03
CLSTN2 (calsyntenin 2): mean z-score = 0.01; z-score, replicate A = -0.8; z-score, replicate B = 0.51; z-score, replicate C = 0.32
TPPP3 (tubulin polymerization promoting protein family member 3): mean z-score = -0.76; z-score, replicate A = -0.63; z-score, replicate B = -0.54; z-score, replicate C = -1.1
PLN (phospholamban): mean z-score = -0.23; z-score, replicate A = -0.25; z-score, replicate B = -0.23; z-score, replicate C = -0.2
LMAN2L (lectin, mannose binding 2 like): mean z-score = 0.69; z-score, replicate A = 0.92; z-score, replicate B = 1.17; z-score, replicate C = -0.01
ARHGAP11A (Rho GTPase activating protein 11A): mean z-score = 1.84; z-score, replicate A = 1.88; z-score, replicate B = 1.81; z-score, replicate C = 1.82
BUD13 (BUD13 spliceosome associated protein): mean z-score = 0.03; z-score, replicate A = -0.07; z-score, replicate B = 0.27; z-score, replicate C = -0.13
DYRK3 (dual specificity tyrosine phosphorylation regulated kinase 3): mean z-score = 3.2 (active); z-score, replicate A = 3.8; z-score, replicate B = 3.67; z-score, replicate C = 2.14
LOC389232 (retired record): mean z-score = 0.93; z-score, replicate A = 0.94; z-score, replicate B = 0.75; z-score, replicate C = 1.09
KRT26 (keratin 26): mean z-score = -0.32; z-score, replicate A = 0.06; z-score, replicate B = -0.68; z-score, replicate C = -0.34
LOC389142 (retired record): mean z-score = -0.1; z-score, replicate A = -0.09; z-score, replicate B = -0.35; z-score, replicate C = 0.14
ITGA4 (integrin subunit alpha 4): mean z-score = -0.76; z-score, replicate A = -0.75; z-score, replicate B = -0.84; z-score, replicate C = -0.68
ZNF146 (zinc finger protein 146): mean z-score = 1.24; z-score, replicate A = 1.32; z-score, replicate B = 0.95; z-score, replicate C = 1.46
CXCR4 (C-X-C motif chemokine receptor 4): mean z-score = -0.79; z-score, replicate A = -1.07; z-score, replicate B = -0.67; z-score, replicate C = -0.63
CCDC191 (coiled-coil domain containing 191): mean z-score = -0.16; z-score, replicate A = 0.04; z-score, replicate B = -0.28; z-score, replicate C = -0.25
NECTIN4 (nectin cell adhesion molecule 4): mean z-score = 0.76; z-score, replicate A = 0.62; z-score, replicate B = 0.96; z-score, replicate C = 0.69
TSPAN3 (tetraspanin 3): mean z-score = -0.2; z-score, replicate A = -0.32; z-score, replicate B = -0.2; z-score, replicate C = -0.09
EYA2 (EYA transcriptional coactivator and phosphatase 2): mean z-score = 0.32; z-score, replicate A = 0.14; z-score, replicate B = 0.26; z-score, replicate C = 0.56
GDNF (glial cell derived neurotrophic factor): mean z-score = 0.03; z-score, replicate A = 0.03; z-score, replicate B = 0.15; z-score, replicate C = -0.1
LOC402300 (retired record): mean z-score = 0.48; z-score, replicate A = 0.38; z-score, replicate B = 0.71; z-score, replicate C = 0.34
